Anti-infective test results gathered from many reports (values: NIAID ChemDB through PubChem).

Shared fields: tests in culture; agent: Vaccinia virus; measure: EC50

Blank or dashed fields: not listed here. ECn is the concentration giving n% inhibition of infection, replication or growth. Rows are shuffled and stem from different studies.

compound | strain | cell line | value
CC1(C)[C@H](CO)C[C@@H]1Cn1cnc2c(=O)[nH]c(N)nc21 |  | E6SM | >400 µg/mL
Nc1ccn([C@@H]2C=C(CO)[C@@H](O)[C@H]2O)c(=O)n1 |  | VERO | 0.1 µg/mL
O=c1[nH]cnc2c1ncn2CCOCP(=O)(O)O |  | Primary rabbit kidney cells | >400 µg/mL
Nc1ccn(C[C@@H](CO)OCP(=O)(O)O)c(=O)n1 |  | VERO | 30 µM
O=c1[nH]c(=O)n([C@H]2C[C@H](O)[C@@H](CO)O2)cc1/C=C/Br |  | VERO | >500 µM
NC(=O)c1ncn([C@H]2C=C[C@@H](CO)O2)n1 |  |  | 36 µg/mL
O[C@@H]1[C@@H](OCc2ccccc2)[C@@H](COCc2ccccc2)O[C@H]1n1cnc2cc(Cl)c(Cl)cc21 |  | E6SM | >10 µg/mL
NC(=O)c1ncn([C@@H]2O[C@H](CO)[C@@H](O)[C@H]2O)n1 |  | VERO | 13.5 µg/mL
O=c1ccn([C@@H]2O[C@@H](CO)[C@H](O)[C@H]2O)c(=O)[nH]1 |  | VERO B | >1000 µM
C[C@H](NP1(=O)CO[C@@H](Cn2ccc(N)nc2=O)CO1)C(=O)OCCc1ccccc1 | NYC | HFF | 16 µM
Nc1ncnc2c1ncn2CCOCP(=O)(O)O |  | Primary rabbit kidney cells | 150 µg/mL
CCCCCCCCCCCCCCCCOCCCOP1(=O)CO[C@@H](Cn2ccc(N)nc2=O)CO1 | WR | HFF | 5.8 µM
Nc1ncnc2c1ncn2C[C@@H](CO)OCP(=O)(O)O | Copenhagen strain wild type | VERO 76 | 3.4 µM
CCCCOC(=O)C(C)NP(=O)(COCCn1cnc2c(N)ncnc21)NC(C)C(=O)OCCCC | WR | HFF | 4.4 µM
Cc1cccc2c1OP(=O)(OCCOCn1cnc3c(=O)[nH]c(N)nc31)OC2 |  | VERO 76 | >99 µg/mL
Nc1nccc2c1ncn2[C@@H]1C[C@H](CO)[C@@H](O)[C@H]1O |  | PRK | 0.8 µg/mL
Nc1nc(NC2CC2)c2ncn(CCOCP(=O)(O)O)c2n1 | WR | HFF | 18 µM
Nc1ccn(C[C@H]2COP(=O)(O)CO2)c(=O)n1 | Copenhagen strain wild type | VERO 76 | 21 µM
Cn1cc(NC(=O)c2cc(NC(=O)c3cc(NC=O)cn3C)cn2C)cc1C(=O)NCCC(=N)N |  | BSC-40 | <50 µM
O=c1[nH]c(=O)n([C@H]2C[C@H](O)[C@@H](CO)O2)cc1CO |  | PRK | 4 µg/mL
Cc1cn([C@H]2C[C@H](N=[N+]=[N-])[C@@H](CO)O2)c(=O)[nH]c1=O |  | VERO | >374 µM
CC1(C)[C@H](CO)C[C@@H]1Cn1nnc2c(N)nc(N)nc21 |  | E6SM | 50 µg/mL
Cn1cc(NC(=O)c2cc(NC(=O)CCCCC(=O)Nc3cc(C(=O)Nc4cc(C(=O)NCCC(N)=[NH2+])n(C)c4)n(C)c3)cn2C)cc1C(=O)NCCC(N)=[NH2+] |  | VERO | 4.5 µg/mL
C[C@H](O)[C@@H]1C[C@H](CCn2cnc3c(=O)[nH]cnc32)C1(C)C |  | E6SM | >100 µg/mL
Nc1ncnc2c1ncn2C[C@H]1COP(=O)(O)CO1 |  | Primary rabbit kidney cells | 0.7 µg/mL
O=c1[nH]c(=O)n([C@H]2C[C@H](O)[C@@H](CO)O2)cc1/C=C/Br |  | PRK | 7 µg/mL
Nc1ncnc2c1ncn2C[C@H](O)CO |  | HeLa | 70 µg/mL
Cc1cn([C@H]2C[C@@H](O)[C@H](CO)O2)c(=O)[nH]c1=O |  | VERO B | >1000 µM
C[C@H](O)[C@@H]1C[C@H](Cn2cnc3c(=O)[nH]cnc32)C1(C)C |  | E6SM | >300 µg/mL
CCCCCCCCCCCCCCCCCCOCCOP1(=O)CO[C@@H](Cn2ccc(N)nc2=O)CO1 | NYC | HFF | 0.03 µM
OC[C@H]1O[C@@H](n2cnc3cc(Cl)c(Cl)cc32)[C@@H](O)[C@@H]1O |  | E6SM | >10 µg/mL
Nc1nccc2c1ncn2[C@@H]1C=C(CO)[C@@H](O)[C@H]1O |  | PRK | 0.07 µg/mL
Nc1ncnc2c1c(Br)cn2[C@@H]1O[C@H](CO)[C@@H](O)[C@H]1O |  | PRK/E6SM | >0.1 µg/mL
Nc1nc(N)c2ncn(CC(CO)OCP(=O)(O)O)c2n1 |  | Primary rabbit kidney cells | 2 µg/mL
OC[C@H]1O[C@@H](n2cnc3cc(Cl)c(Cl)cc32)[C@H](O)[C@H]1O |  | E6SM | >4 µg/mL
Nc1ccn(C[C@@H](CO)OCP(=O)(O)O)c(=O)n1 |  | PRK | 4 µg/mL
Nc1nc(NCC(F)(F)F)c2ncn(CCOCP(=O)(O)O)c2n1 | NYC | HFF | 50 µM
Clc1cc2nc[nH]c2cc1Cl |  | E6SM | >10 µg/mL
Nc1nc2c(ncn2[C@H]2C[C@@H](O)[C@H](CO)O2)c(=O)[nH]1 |  | VERO B | >1000 µM
C=CCNc1nc(N)nc2c1ncn2CCOCP(=O)(O)O | NYC | HFF | 16 µM
Nc1ncnc2c1ncn2C[C@@H](CO)OCP(=O)(O)O |  | Primary rabbit kidney cells | 0.7 µg/mL
Nc1nc(N)c2ncn(CCOCP(=O)(O)O)c2n1 | WR | HFF | 128 µM
Nc1nccc2c1ncn2[C@@H]1C[C@H](CO)[C@@H](O)[C@H]1O |  | PRK | 2 µg/mL
Nc1nc2c(ncn2[C@@H]2O[C@@H](CO)[C@H](O)[C@H]2O)c(=O)[nH]1 |  | VERO B | >1000 µM
CCCCCCCCCCCCCCCCCCOCCOP(=O)(O)CO[C@H](CO)Cn1ccc(N)nc1=O | Copenhagen | HFF | 0.2 µM
C=Cc1cn([C@H]2C[C@H](O)[C@@H](CO)O2)c(=O)[nH]c1=O |  | PRK | 0.4 µg/mL
Nc1nc2c(ncn2COCCOP2(=O)OCc3ccccc3O2)c(=O)[nH]1 |  | VERO 76 | >99 µg/mL
Nc1nc(N)c2ncn(C3C[C@H](O)[C@@H](O)C3)c2n1 |  | ESM | 150 µg/mL
COc1c(C)c2c(c(O)c1C/C=C(\C)CCC(=O)O)C(=O)OC2 | Copenhagen strain wild type | VERO 76 | 0.4 µM
Nc1nccc2c1ncn2[C@@H]1C=C(CO)[C@@H](O)[C@H]1O |  | PRK | 0.07 µg/mL
OC[C@H]1O[C@@H](n2cnc3cc(Cl)c(Cl)cc32)[C@H](O)[C@@H]1O |  | E6SM | >10 µg/mL